Pooled drug test results. Numbers come from NIAID ChemDB, via PubChem.

Common to all: growth or infection tests; agent: HIV-1; measure: inhibition

Inhibition is in % at the dose shown (toxicity tests: loss of growth or viability).

SMILES | strain | tested at | changes | read by | cell line | result
O=C(Cn1c(=O)oc2ccccc21)NNC(=S)c1ccccc1 | NL4-3 | 100 µM |  | p24 / ELISA | HeLa | 16%
C[C@@H]1CN(C(=O)c2ccccn2)CCN1C(=O)C(=O)c1c[nH]c2cccc(F)c12 |  | 10 µM |  | luciferase | HeLa + HELA CD4+/CCR5 | >98%
C=C1[C@H](n2cnc3c(N)ncnc32)O[C@@H]1CO |  | 3 µg/mL |  | antigen | MT-4 | 90%
O=C(Cn1c(=O)oc2ccccc21)NNC(=S)c1ccc(F)cc1 | NL4-3 | 100 µM |  | p24 / ELISA | HeLa | 81%
NCCSSCCN | IIIB | 100 µM |  | p24 | PBL | 75%
O=c1[nH]cnc2c1ncn2[C@H]1C[C@@H](CO)O1 |  | 3 µg/mL |  | antigen | MT-4 | >99.9%
CC(=O)C1=CN(C(=O)OC(C)C)C=CC1C#N | IIIB | 50 µM |  | syncytia | MOLT-3 | 0%
C[C@@H]1CN(C(=O)c2ccccc2)CCN1C(=O)C(=O)c1c[nH]c2c([N+](=O)[O-])cccc12 |  | 10 µM |  | luciferase | HeLa + HELA CD4+/CCR5 | >98%
O=C(Cn1c(=O)oc2ccccc21)NNC(=O)c1ccc(Cl)cc1 | NL4-3 | 100 µM |  | p24 / ELISA | HeLa | 29%
N#CC1C=Cc2c(ccc3ccccc23)N1C(=O)OCCCl | IIIB | 50 µM |  | syncytia | MOLT-3 | 0%
C[C@@H]1CN(C(=O)c2ccccc2)CCN1C(=O)C(=O)c1c[nH]c2c(F)c(F)c(F)c(F)c12 |  | 10 µM |  | luciferase | HeLa + HELA CD4+/CCR5 | >98%
OCCCCCCOc1ccc(-c2ccccc2)cc1 | GB8 | 15 µg/mL |  | syncytia | JM | 100%
O=C(C(=O)N1CCN(C(=O)c2c(S)cccc2Cl)CC1)c1c[nH]c2cccc(Cl)c12 |  | 10 µM |  | luciferase | HeLa + HELA CD4+/CCR5 | 94%
N=C1Sc2ccccc2C2=NCCCN12 | 98IN022 | 1.48 µM |  | β-galactosidase | PBMC | 90%
O=C(Cn1c(=O)oc2ccccc21)NNC(=O)c1cccc(F)c1 | NL4-3 | 100 µM |  | p24 / ELISA | HeLa | 5%
Cc1ccc(C)c(NS(=O)(=O)c2cc(C(=O)NCc3ccccn3)ccc2Cl)c1 | Clinical isolate | 1 µM | AZT-resistant | p24 | C8166 | 90%
COc1ccc([C@@H]2CC(=O)c3c(O)cc(O[C@@H]4O[C@H](CO[C@@H]5O[C@@H](C)[C@H](OP(=O)(O)O)[C@@H](OP(=O)(O)O)[C@H]5O)[C@@H](OP(=O)(O)O)[C@H](OP(=O)(O)O)[C@H]4O)cc3O2)cc1O | IIIS | 500 µg/mL |  | syncytia | MT-2 | 100%
Nc1ncnc2c1ncn2[C@@H]1O[C@H](CO)[C@H]1F |  | 10 µg/mL |  | antigen | MT-4 | 50%
CO[C@H]1C[C@@H]2CC[C@@H](C)[C@@](O)(O2)C(=O)C(=O)N2CCCC[C@H]2C(=O)O[C@H]([C@H](C)C[C@@H]2CC[C@@H](O)[C@H](OC)C2)CC(=O)[C@H](C)/C=C(\C)[C@@H](O)[C@@H](OC)C(=O)[C@H](C)C[C@H](C)/C=C/C=C/C=C/1C | ADA R5 | 0.0001 µM |  | p24 | PBMC | 48%
Nc1ncnc2c1ncn2[C@@H]1O[C@H](CO)[C@H]1N |  | 10 µg/mL |  | antigen | MT-4 | 94%
O=C(O)CCC(CCC(=O)O)(CCC(=O)O)NC(=O)CCC(CCC(=O)NC(CCC(=O)O)(CCC(=O)O)CCC(=O)O)(CCC(=O)NC(CCC(=O)O)(CCC(=O)O)CCC(=O)O)NC(=O)CCCOC(=O)C1(C(=O)OCCCC(=O)NC(CCC(=O)NC(CCC(=O)O)(CCC(=O)O)CCC(=O)O)(CCC(=O)NC(CCC(=O)O)(CCC(=O)O)CCC(=O)O)CCC(=O)NC(CCC(=O)O)(CCC(=O)O)CCC(=O)O)C2c3cc4c5c6c3-c3c(cc7c8c3C6C3c6c-5c(cc5ccc9cc(c-8c3c9c65)C7)C4)C21 | AZT/3TC-resistant (RT M184V T215Y) | 2 µM |  | cytopathic effect | PBMC | 90%
C=CC(C)(/C=C\c1ccc(O)cc1)c1ccc(O)cc1.NC(=O)NO | BaL | 0.00232 µM |  | p24 | Macrophage | 90%
Nc1ncnc2c1ncn2[C@H]1C[C@@H](CO)O1 |  | 10 µg/mL |  | antigen | MT-4 | >99.9%
C=CCOC(=O)N1c2ccc3ccccc3c2C=CC1C#N | IIIB | 50 µM |  | syncytia | MOLT-3 | 0%
Cc1cccc(C)c1OCC(=O)N[C@@H](Cc1ccccc1)[C@H](O)[C@@H](O)[C@@H]1CCCN1C(=O)COc1c(C)cccc1C | IIIB | 0.000001 µM |  | MTT | MT-2 | 20%
Nc1ccn([C@H]2CC[C@@H](CO)O2)c(=O)n1 | IIIB | 0.5 µM |  | antigen | MT-4 | 96%
C[C@H]1CN(C(=O)c2ccccc2)CCN1C(=O)C(=O)c1c[nH]c2cccc(F)c12 |  | 10 µM |  | luciferase | HeLa + HELA CD4+/CCR5 | >98%
CC(=O)N1c2ccc3ccccc3c2C=CC1C#N | IIIB | 50 µM |  | syncytia | MOLT-3 | 0%
O=C(C(=O)N1CCN(C(=O)c2c(S)cccc2Cl)CC1)c1c[nH]c2cccc(F)c12 |  | 10 µM |  | luciferase | HeLa + HELA CD4+/CCR5 | >98%
Cc1nnc(N)nc1C/C=C/C(Sc1ccc(Cl)cc1)c1cccs1 | RF | 2 µM |  |  | MT-2 | 79.9%
CC1(C)[C@@H](O[C@H]2O[C@H](C(=O)O)[C@@H](O)[C@H](O)[C@H]2O[C@@H]2O[C@H](C(=O)O)[C@@H](O)[C@H](O)[C@H]2O)CC[C@]2(C)[C@H]3C(=O)C=C4[C@@H]5C[C@@](C)(C(=O)O)CC[C@]5(C)CC[C@@]4(C)[C@]3(C)CC[C@@H]12 | IIIB | 150 µM |  | cytopathic effect | MT-4 | 83%
O=C(C(=O)N1CCN(C(=O)c2ccccc2S)CC1)c1c[nH]c2cccc(F)c12 |  | 10 µM |  | luciferase | HeLa + HELA CD4+/CCR5 | >98%

The last 4 rows once more:

SMILES	strain	tested at	changes	read by	cell line	result
O=C(C(=O)N1CCN(C(=O)c2c(S)cccc2Cl)CC1)c1c[nH]c2cccc(F)c12		10 µM		luciferase	HeLa + HELA CD4+/CCR5	>98%
Cc1nnc(N)nc1C/C=C/C(Sc1ccc(Cl)cc1)c1cccs1	RF	2 µM			MT-2	79.9%
CC1(C)[C@@H](O[C@H]2O[C@H](C(=O)O)[C@@H](O)[C@H](O)[C@H]2O[C@@H]2O[C@H](C(=O)O)[C@@H](O)[C@H](O)[C@H]2O)CC[C@]2(C)[C@H]3C(=O)C=C4[C@@H]5C[C@@](C)(C(=O)O)CC[C@]5(C)CC[C@@]4(C)[C@]3(C)CC[C@@H]12	IIIB	150 µM		cytopathic effect	MT-4	83%
O=C(C(=O)N1CCN(C(=O)c2ccccc2S)CC1)c1c[nH]c2cccc(F)c12		10 µM		luciferase	HeLa + HELA CD4+/CCR5	>98%

Blank or dashed fields: not listed here. Lines come from different laboratories, so protocols vary.